Laboratory results: patent publication US6359176B1, “Cationic surfactants, process for producing the same and utilization thereof” (Matsumoto Yushi-Seiyaku Co., Ltd., priority 1999, dated 2002)

tested on: activated sludge; assay: Biodegradability: degradation by microorganisms with degradation tester and closed system oxygen consumption meter; details: 14 days; 100 % = whole sample degraded into inorganic substances
Experimental: The biodegradability of the derivatives was determined by checking the degree of degradation of those chemicals by microorganisms (procedures defined in Japanese domestic low for regulation of chemical substances and in OECD) with a degradation tester and closed system oxygen consumption meter. The test was continued for 14 days and the biodegradability data was calculated into percentage.
The 100-% degradability in the testing means that whole of a test sample has been degraded into inorganic substances such as carbon dioxide.

| SMILES | Biodegradability (%) |
| --- | --- |
| CCCCCCCCCCCCCCCC(=O)OCC(O)C(O)C(O)C(O)C[N+](C)(C)C.[Cl-] (stereo not drawn) [Monopalmitate derivative] | 36.7% |
| CCCCCCCCCCCC(=O)OCC(COC(=O)CCCCCCCCCCC)OC(=O)CCCCCCCCCCC [Trilaurate] | 47.3% |
| CCCCCCCCCCCCCCCCCC(=O)OCC(O)C(O)C(O)C(O)C[N+](C)(C)C.[I-] (stereo not drawn) [Monostearate derivative] | 57.5% |
